Pooled drug test results. Numbers come from NIAID ChemDB, via PubChem.

Shared fields: tests in culture; species: Mycobacterium tuberculosis

ECn is the concentration giving n% inhibition of infection, replication or growth.

compound,dose,method,read-out,mutations,strain,value
NNC(=O)c1ccncc1,,,MIC,,S-6M (susceptible),0.025 µg/mL
S=C(Nc1ccc(Br)c(Cl)c1)SCc1ccc2c(c1)OCO2,,BACTEC,MIC bound,,H37Rv,≤128 µg/mL
c1ccc(-c2csc(Nc3cccc4ccccc34)n2)nc1,,visual reading,MIC,,H37Rv,6.4 µM
O=C1c2ccccc2OC2CCON12,6.25 µg/mL,resazurin,inhibition,,H37Rv,-6%
Nc1ccc2c(-c3ccccc3)cc(N(CCO)CCO)nc2n1,,,EC50,,H37Rv,>12.5 µg/mL
CC1COc2c(N3CCN(C)CC3)c(F)cc3c(=O)c(C(=O)O)cn1c23,,,MIC90,,24 strains (drug-susceptible),1 µg/mL
CC(=O)Nc1cccc2ccc(C3CCCCC3)nc12,6.25 µg/mL,,inhibition,,H37Rv,1%
Nc1nc2nc3c(nc2c(=O)[nH]1)CN(c1ccc(C(=O)NC(CCC(=O)O)C(=O)O)cc1)C3=O,,BACTEC,MIC,,H37Rv,≥12.8 µg/mL
O=C(CCC(=O)c1ccc(Cl)cc1)NC[C@H]1CN(c2ccc(N3CCCCC3)c(F)c2)C(=O)O1,,,MIC,,10 clinical isolates sensitive,4–8 µg/mL
Cc1ccc(C(C)NC(=O)c2cc([N+](=O)[O-])c(C)c([N+](=O)[O-])c2)cc1,,broth dilution / turbidity / visual reading,MIC,Rifampicin-resistant,RifR,0.17 µM
CC1=C(C)C(=O)C(CC2=C(C)C(=O)C(C)=C(C)C2=O)=C(C)C1=O,,BACTEC,MIC,,H37Rv,≥12.5 µg/mL
CC(=O)Nc1nc(-c2ccccn2)cs1,,visual reading,MIC,,H37Rv,>20 µM
O=C1c2ccccc2C(=O)c2cc(C[P+](c3ccccc3)(c3ccccc3)c3ccccc3)ccc21,,resazurin,MIC,Clinically sensitive strain,FJ05060,1 µg/mL
CN(C)c1ccc(/C=C2\COc3ccccc3C2=O)cc1,10 µg/mL,broth dilution / resazurin,inhibition,,H37Rv,0%
O=C(Nc1nc(-c2ccccn2)cs1)C1CCCCC1,,visual reading,MIC,,H37Rv,1.4 µM
CCCCCCCCCCO/N=C/c1c2c(O)c3c(O)c(C)c4c(c3c1O)C(=O)[C@@](C)(O/C=C/[C@H](OC)[C@@H](C)[C@@H](OC(C)=O)[C@H](C)[C@H](O)[C@H](C)[C@@H](O)[C@@H](C)/C=C/C=C(/C)C(=O)N2)O4,,,MIC,,H37Rv,20 µg/mL
CC(=O)Oc1ccccc1C(=O)Nc1ncc([N+](=O)[O-])s1,,visual reading,MIC,,S spoligotype 34,12 µg/mL
Nc1ccc2c(-c3ccccc3)cc(=S)[nH]c2n1,,,EC50,,H37Rv,>12.5 µg/mL
CCOC(=O)Cn1sc2ncc([N+](=O)[O-])cc2c1=O,12.5 µg/mL,BACTEC,inhibition,,H37Rv,0%
CC(=O)Nc1cccc2cccnc12,6.25 µg/mL,,inhibition,,H37Rv,0%
Cc1c([N+](=O)[O-])ncn1CC(O)COC[C@H]1O[C@@H]2OC(C)(C)O[C@@H]2[C@H]2OC(C)(C)O[C@H]21,,agar,MIC,,H37Rv,1.56 µg/mL
CC(=O)Nc1ccc(C(=O)CCC(=O)NC[C@H]2CN(c3ccc(-n4cncn4)c(F)c3)C(=O)O2)cc1,,,MIC,,10 clinical isolates resistant,2–4 µg/mL
CCc1ccnc2c(N)cc(C(C)=O)c(OC3CCCC3)c12,6.25 µg/mL,,inhibition,,H37Rv,47%
Cc1ccc(C(=S)CCC(=O)NC[C@H]2CN(c3ccc(N4CCOCC4)c(F)c3)C(=O)O2)cc1,,,MIC,,10 clinical isolates sensitive,>16 µg/mL
COc1cccc(/C=N/NC(=O)Cc2csc3nc(-c4ccccc4)cn23)c1,,,MIC,,H37Rv,>12.5 µg/mL
CC1(C)S[C@@H]2[C@H](NC(=O)C(C(=O)O)c3ccccc3)C(=O)N2[C@H]1C(=O)O,,,MIC90,,24 strains (drug-susceptible),>256 µg/mL
Cc1ccc(/C=N/N=C(\N)c2ccncc2)c(C)c1,,,MIC,,H37Rv,8 µg/mL
CN(C)CCN(C)P12(Oc3ccccc3O1)Oc1c(Cl)c(Cl)c(Cl)c(Cl)c1O2,12.5 µg/mL,BACTEC,inhibition,,H37Rv,0%
O=C(Nc1ccc(F)cc1)c1cc([N+](=O)[O-])cc([N+](=O)[O-])c1,,broth dilution / turbidity / visual reading,MIC,,H37Rv (ATCC 27294),>3.28 µM
CCCCCCCn1c(=O)c2c3c(cnc2n(CCCCCCC)c1=O)C(=O)C1=C(C3=O)C2CCC1C2,,luminescence,EC99,pSMT1 luciferase reporter plasmid,H37Rv,5.57 µg/mL
N/C(=N\N=C\c1cccc(F)c1)c1ccncc1,,,MIC,,H37Rv,128 µg/mL
O=C(CCC(=O)c1ccc(F)cc1F)NC[C@H]1CN(c2ccc(-n3cncn3)c(F)c2)C(=O)O1,,,MIC,,ATCC 27294,8 µg/mL
Cc1cccc(/C=C2\Cc3ccccc3C2=O)c1,12.5 µg/mL,broth dilution / resazurin,inhibition,,H37Rv,78%
C/C(CCn1[nH]c(=O)ccc1=O)=N\NC(=O)C(=O)NN,,BACTEC,MIC,,H37Rv,≥12.5 µg/mL
CCCCCCn1c(=O)c2c3c(cnc2n(CCCCCC)c1=O)C(=O)C1=C(C3=O)C2CCC1CC2,,luminescence,EC90,pSMT1 luciferase reporter plasmid,H37Rv,6.13 µg/mL
CC(=O)c1cc([N+](=O)[O-])c2nc(C3CCCC3)ccc2c1C1CCCC1,6.25 µg/mL,,inhibition,,H37Rv,0%
O=C(Cc1csc2nc(-c3ccccc3)cn12)N/N=C/c1cc(Br)ccc1O,,,EC50,,H37Rv,>12.5 µg/mL
CO[C@H]1/C=C/O[C@@]2(C)Oc3c(C)c(O)c4c(=O)c(c5oc6cc(N7CCN(CC(C)C)CC7)cc(=O)c6nc5c4c3=C2O)NC(=O)/C(C)=C\C=C\[C@H](C)[C@H](O)[C@@H](C)[C@@H](O)[C@@H](C)[C@H](OC(C)=O)[C@@H]1C,,,MIC,,2230 (rifampicin-resistant),0.125 µg/mL
CCOC(=O)N1CCN(c2cc(-c3ccccc3)c3ccc(Cl)nc3n2)CC1,12.5 µg/mL,,inhibition,,H37Rv,71%
CO[C@H]1/C=C/O[C@@]2(C)Oc3c(C)c(O)c4c(O)c(c(/C=N/N5CCN(C)CC5)c(O)c4c3C2=O)NC(=O)/C(C)=C\C=C\[C@H](C)[C@H](O)[C@@H](C)[C@@H](O)[C@@H](C)[C@H](OC(C)=O)[C@@H]1C,,visual reading,MIC,,H37Rv,0.004 µM
CCOC(=O)N1CCN(c2cc(-c3ccccc3)c3ccc(NC(C)=O)nc3n2)CC1,,,EC50,,H37Rv,>12.5 µg/mL
N#CC(C#N)=C1C=Cc2ccccc2O1,,BACTEC,MIC bound,,H37Rv,>12.5 µg/mL
CCCCCCCCCCCCCCCOC(COC[C@H]1O[C@@H]2OC(C)(C)O[C@@H]2[C@H]2OC(C)(C)O[C@H]21)Cn1cc([N+](=O)[O-])nc1C,,agar,MIC,,H37Rv,3.13 µg/mL
NNC(=O)c1ccncc1,,,MIC,,Isolate R1,0.031 µg/mL
O=C(Cc1csc2nc(-c3ccccc3)cn12)N/N=C/c1ccccc1O,,,MIC,,H37Rv,>12.5 µg/mL
CC1(C)O[C@H]2[C@@H](O1)[C@@H](COCC(Cn1cnc([N+](=O)[O-])c1)OCc1ccc(OC(F)(F)F)cc1)O[C@@H]1OC(C)(C)O[C@@H]12,,agar,MIC,,H37Rv,3.13 µg/mL
O=c1cc(-c2ccccc2)c2ccc(N3CCNCC3)nc2[nH]1,,,EC50,,H37Rv,>12.5 µg/mL
CC1NC(=O)C2Cc3ccc(O)c(c3)Oc3ccc(cc3)[C@H](O)C(C(=O)N2C)N(C)C(=O)C(C)NC(=O)C(Cc2ccc(O)cc2)N(C)C(=O)C(C)NC1=O,,resazurin,MIC bound,,H37Rv,>6.25 µg/mL
N/C(=N\N=C\c1ccc(Cl)c(Cl)c1)c1ccncc1,,,MIC,,1481,256 µg/mL
CN(C)c1ccc(/C=N/N=C/c2ccccc2O)c(Cl)c1,12.5 µg/mL,BACTEC,inhibition,,H37Rv,0%
CO[C@H]1/C=C/O[C@@]2(C)Oc3c(C)c(O)c4c(O)c(c(/C=N/OCCN5CCCCC5)c(O)c4c3C2=O)NC(=O)/C(C)=C\C=C\[C@H](C)[C@H](O)[C@@H](C)[C@@H](O)[C@@H](C)[C@H](OC(C)=O)[C@@H]1C,,,MIC,,H37Rv,2 µg/mL
COc1cc(/C=N/N=C(\N)c2ccncc2)cc(OC)c1OC,,,MIC,,1481,256 µg/mL
CCCCCCn1c(=O)c2c3c(cnc2n(CCCCCC)c1=O)C(=O)C1=C(C3=O)C2CCC1C2,,luminescence,EC90,pSMT1 luciferase reporter plasmid,H37Rv,5.43 µg/mL
Cc1ccc(/C=N/N=C(\N)c2ccncc2)cc1,,,MIC,,1054,8 µg/mL
O=C(NCc1ccccc1)Nc1nc(-c2ccccc2)c(-c2ccccc2)nc1C(=O)NCc1ccccc1,12.5 µg/mL,BACTEC,inhibition,,H37Rv,45%
O=C(Nc1cccc2ccc(C3CCCCC3)nc12)C(F)(F)F,6.25 µg/mL,,inhibition,,H37Rv,9%
CCCCCCCSCC1C(=O)C23C(O)C1CCC2C12COC3(O)C(O)C1C(C)(C)CCC2O,,BACTEC,MIC,,H37Rv,≥12.5 µg/mL
O=C1/C(=C/c2cccc(Br)c2)CCCc2ccccc21,12.5 µg/mL,broth dilution / resazurin,inhibition,,H37Rv,63%
Nc1cc(-c2ccccc2)c2ccc(=O)[nH]c2n1,12.5 µg/mL,,inhibition,,H37Rv,0%
N/C(=N\N=C\c1ccccc1)c1ccncc1,,,MIC,,H37Rv,16 µg/mL
NC(=O)c1ccc(NC(=O)/C=C/C(=O)Nc2ccc(C(N)=O)cn2)nc1,6.25 µg/mL,,inhibition,,H37Rv,5%
Nc1ccc2c(-c3ccccc3)cc(N3CCNCC3)nc2n1,12.5 µg/mL,,inhibition,,H37Rv,0%
Cn1c(=O)c2c3c(cnc2n(C)c1=O)C(=O)C1=C(C3=O)C2CCC1CC2,,luminescence,EC90,pSMT1 luciferase reporter plasmid,H37Rv,6.98 µg/mL
NNC(=O)c1ccncc1,,agar,MIC,,H37Rv,0.05 µg/mL
CC(C)=CCc1c2c(c3occ(-c4ccc(OS(=O)(=O)c5ccc(C)cc5)c(OS(=O)(=O)c5ccc(C)cc5)c4)c(=O)c3c1O)C=CC(C)(C)O2,,BACTEC,MIC bound,,H37Rv,>12.5 µg/mL
O=C(Cc1csc2nc(-c3ccccc3)cn12)N/N=C/c1ccc(C(=O)O)cc1,,,MIC,,H37Rv,>12.5 µg/mL
CCCCCCCCO/N=C/c1c2c(O)c3c(O)c(C)c4c(c3c1O)C(=O)[C@@](C)(O/C=C/[C@H](OC)[C@@H](C)[C@@H](OC(C)=O)[C@H](C)[C@H](O)[C@H](C)[C@@H](O)[C@@H](C)/C=C/C=C(/C)C(=O)N2)O4,,,MIC,,H37Rv,>5 µg/mL
Cc1ccc(-n2nnc3c(NNc4ccccc4)n[nH]c(=O)c32)cc1,6.25 µg/mL,resazurin,inhibition,,H37Rv,23%
CCO/N=C/c1c2c(O)c3c(O)c(C)c4c(c3c1O)C(=O)[C@@](C)(O/C=C/[C@H](OC)[C@@H](C)[C@@H](OC(C)=O)[C@H](C)[C@H](O)[C@H](C)[C@@H](O)[C@@H](C)/C=C/C=C(/C)C(=O)N2)O4,,,MIC,,H37Rv,0.1 µg/mL
CN(C)c1ccc(-c2nn(C)c3nc(=O)n(C)c(=O)c-3[n+]2[O-])cc1,,resazurin,MIC,,H37Rv,3.13 µg/mL
CCCCCCCOc1c(C(C)=O)cc([N+](=O)[O-])c2nccc(CC)c12,,,MIC,,Rifampicin-resistant,6.25 µg/mL
Cc1nc(N)[nH]c(=O)c1-n1nnc2ccccc2c1=O,,BACTEC,MIC bound,,H37Rv,>12.5 µg/mL
Cc1cccc(/C=C2\CCCCCC2=O)c1,12.5 µg/mL,broth dilution / resazurin,inhibition,,H37Rv,0%
CCC1OC(=O)C(C)C(OC2CC(C)(OC)C(O)C(C)O2)C(C)C(OC2OC(C)CC(N(C)C)C2OC(=O)CCC2CCCC2)C(C)(O)CC(C)C(=O)C(C)C(O)C1(C)O,12.8 µg/mL,BACTEC,inhibition,,H37Rv,64%
CO[C@H]1/C=C/O[C@@]2(C)Oc3c(C)c(O)c4c(O)c(c(/C=N/N5CCN(C)CC5)c(O)c4c3C2=O)NC(=O)/C(C)=C\C=C\[C@H](C)[C@H](O)[C@@H](C)[C@@H](O)[C@@H](C)[C@H](OC(C)=O)[C@@H]1C,,,MIC,,K2,1 µg/mL
COC(=O)c1[nH]c(=O)c(C#N)c(C(=O)OC)c1-c1ccccn1,,BACTEC,MIC bound,,H37Rv,>12.5 µg/mL
C[C@@H]1CN(c2c(F)c(N)c3c(=O)c(C(=O)O)cn(C4CC4)c3c2F)C[C@H](C)N1,,,MIC,,S-6M (susceptible),0.2 µg/mL
NC(N)=Nc1nc2ccc([N+](=O)[O-])cc2[nH]1,6.25 µg/mL,resazurin,inhibition,,H37Rv,15%
N/C(=N\N=C\c1ccc([N+](=O)[O-])cc1)c1ccncc1,,,MIC,,1342,>256 µg/mL

MIC bound: limit read from a one-dose screen. Blank or dashed fields: not listed here. Percent inhibition refers to the dose given; in toxicity tests it is the harm to the cells. Two numbers with a dash give a range or band. Rows are shuffled and stem from different studies. A number after MIC or MFC names an inhibition level or a share of isolates.